A mixed list of measured activities; the numbers were collected in NIAID ChemDB.

All rows: tests in culture; organism: HIV-1; cells: CEM; read-out: EC50

a–b is a range or a potency band. ECn is the concentration giving n% inhibition of infection, replication or growth. Conditions beyond the fields shown may differ between rows. An empty or dashed field is not shown.

SMILES,strain,mutations,read by,result
CCCC[C@H](NC(=O)c1ccccc1SSc1ccccc1C(=O)N[C@@H](CCCC)C(=O)O)C(=O)O,IIIB,,cytopathic effect / XTT,7.4 µM
O=C(c1cccc(F)c1)c1ccc2[nH]c(=O)sc2c1,IIIB,,syncytia,>40 µg/mL
O=C(O)C[C@H](CCCCNC(=O)OCc1ccccc1)NC(=O)c1ccccc1SSc1ccccc1C(=O)N[C@@H](CCCCNC(=O)OCc1ccccc1)CC(=O)O,IIIB,,cytopathic effect / XTT,7.1 µM
Cc1occc1C(=S)Nc1ccc(Cl)c(OCC=C(Cl)Cl)c1,TIBO R82150-resistant (RT L100I),RT-L100I,syncytia,0.14 µg/mL
O=C1NC(C2CC2)=C(C(=O)OCC2CCCCC2)C(c2cccc(O)c2)N1,,,p24 / ELISA,>1 µM
CC(C)c1c(Sc2ccccc2)n(COCCO)c(=S)[nH]c1=O,IIIB,RT-Y181I,syncytia,>10 µM
CC1=C(C(=O)Nc2ccc(Cl)c(C(=O)OC(C)C)c2)SCCO1,IIIB,RT-Y188H,syncytia,2.8 µM
CCOCn1c(Sc2ccccc2)c(CC)c(=O)[nH]c1=O,IIIB,RT-E138K,syncytia,0.13 µM
O=c1oc2cc(Cc3ccccc3)ccc2n1CCN1CCOCC1,IIIB,,syncytia,>8 µg/mL
C=CCOC(=O)N[C@@H](Cc1ccccc1)[C@H](O)CN(CC1CCCC1)S(=O)(=O)c1ccc(OC)cc1,IIIB,,p24,<0.101 µM
CCc1c(Sc2cc(C)cc(C)c2)n(COCc2ccccc2)c(=S)[nH]c1=O,IIIB,RT-Y188H,syncytia,0.97 µM
COc1ccc(NC(=O)C2=C(C)OCCS2)cc1OCC=C(Cl)Cl,HEPT-resistant (RT Y188H),RT-Y188H,syncytia,10 µg/mL
COc1ccc(S(=O)(=O)N(CC(C)C)CC(O)CN(CC(C)C)S(=O)(=O)c2ccccc2)cc1,IIIB,,p24,<1 µM
C/C(Cl)=C/COc1cc(NC(=O)c2ccoc2C)ccc1Cl,TIBO R82150-resistant (RT L100I),RT-L100I,syncytia,0.7 µg/mL
CCc1c(Sc2cc(C)cc(C)c2)n(COCCO)c(=S)[nH]c1=O,IIIB,RT-E138K,syncytia,0.04 µM
CCCCOC[C@H](NC(=O)c1ccccc1SSc1ccccc1C(=O)N[C@@H](COCCCC)C(=O)O)C(=O)O,IIIB,,cytopathic effect / XTT,>100 µM
CCC1=C(C(=O)OCC2CCCCC2)C(c2cc(Br)cc(Br)c2)NC(=O)N1,,,p24 / ELISA,>5 µM
Cc1occc1C(=S)Nc1ccc(Cl)c(/C=N/OC(C)(C)C)c1,IIIB,RT-V179D,syncytia,0.48 µM
Cc1occc1C(=O)Nc1ccc(Cl)c(SCC=C(Cl)Cl)c1,HEPT-resistant (RT Y188H),RT-Y188H,syncytia,2 µg/mL
CCCCCC(NC(=O)c1ccccc1SSc1ccccc1C(=O)NC(CCCCC)C(=O)O)C(=O)O,IIIB,,cytopathic effect / XTT,6.9 µM
C/C(Cl)=C/COc1cc(NC(=S)c2ccoc2C)ccc1Cl,HEPT-resistant (RT Y188H),RT-Y188H,syncytia,0.9 µg/mL
CC(C)CN(CC(O)CN1CSC[C@H]1C(=O)NC(C)(C)C)S(=O)(=O)c1ccccc1,IIIB,,p24,<1 µM
CC1=C(C(=O)Nc2ccc(Cl)c(OCC=C(Cl)Cl)c2)SCCO1,Pyridone-resistant (RT Y181C),RT-Y181C,syncytia,2 µg/mL
CC(C)C[C@@H](/C=C/C(=O)O)NC(=O)c1ccccc1SSc1ccccc1C(=O)N[C@H](/C=C/C(=O)O)CC(C)C,IIIB,,cytopathic effect / XTT,3.7 µM
C=CCOC(=O)N[C@@H](Cc1ccccc1)[C@H](O)CN(CC1CCCC1)S(=O)(=O)c1ccc(F)cc1,IIIB,,p24,<0.101 µM
CC(C)CN(CC(O)CCN(CC1CCCC1)S(=O)(=O)c1ccc(O)cc1)S(=O)(=O)c1ccccc1,IIIB,,p24,<1 µM
O=C(c1ccc2[nH]c(=O)oc2c1)c1ccccc1F,IIIB,,syncytia,>8 µg/mL
Cc1cc(C)c(CS(=O)c2cccc[n+]2[O-])c(C)c1,IIIB,RT-E138K,syncytia,10 µg/mL
CC(C)CN(C[C@@H](O)[C@H](Cc1ccccc1)NC(=O)OC(C)(C)C)S(=O)(=O)c1cccc(F)c1,IIIB,,p24,<1.001 µM
CCC1=C(C(=O)OCC2CCCCC2)C(c2cccc([NH3+])c2)NC(=O)N1,,,p24 / ELISA,≤1 µM
Cc1ccc(C)c(CS(=O)(=O)c2cccc[n+]2[O-])c1,MN,,syncytia,10 µg/mL
Cc1cn([C@H]2C=C[C@@H](CO)O2)c(=O)[nH]c1=O,,,syncytia,0.65 µM
CCCC[C@H](NC(=O)c1ccccc1SSc1ccccc1C(=O)N[C@@H](CCCC)C(=O)OC(C)(C)C)C(=O)OC(C)(C)C,IIIB,,cytopathic effect / XTT,>16 µM
COc1ccc(C)cc1CS(=O)(=O)c1cccc[n+]1[O-],HE,,syncytia,38 µg/mL
Cc1cc(CS(=O)(=O)N(CC2CCCC2)C[C@@H](O)CN(CCc2ccccc2)C(=O)c2ccccc2)no1,IIIB,,p24,<1 µM
CCCOC(=O)N[C@@H](Cc1ccccc1)[C@H](O)CN(CC(C)C)S(=O)(=O)c1ccc(Cl)c(Cl)c1,IIIB,,p24,<1.001 µM
COc1ccc(S(=O)(=O)N(CC(C)C)CC(O)Cc2ccccc2C(=O)NC(C)(C)C)cc1,IIIB,,p24,<1 µM
COc1ccc(OP(=O)(N[C@@H](C)C(=O)OCc2ccccc2)OC[C@@H]2CCC(n3ccc(=O)[nH]c3=O)O2)c2ccccc12,,,syncytia,20 µM
CC(=O)n1c(=O)sc2cc(C(=O)c3cccc(F)c3)ccc21,IIIB,,syncytia,4.6 µg/mL
CC[C@@H](C)[C@@H](NC(=O)c1ccccc1SSc1ccccc1C(=O)N[C@@H](C(=O)O)[C@H](C)CC)C(=O)O,IIIB,,cytopathic effect / XTT,6.3 µM
CCC1=C(C(=O)OCC2CCCCC2)C(c2ccc(OC(F)F)c(O)c2)NC(=O)N1,,,p24 / ELISA,≤1 µM
CC(C)c1c(Sc2ccccc2)n(COCc2ccccc2)c(=S)[nH]c1=O,IIIB,Nevirapine resistant (RT Y181C),syncytia,0.2 µM
O=C(c1ccccc1)c1ccc2c(c1)oc(=O)n2Cc1ccccc1,IIIB,,syncytia,>40 µg/mL
CC(C)OC(=O)[C@H](C)NP(=O)(OC[C@@H]1C=CC(n2ccc(=O)[nH]c2=O)O1)Oc1cccc2ccccc12,,,syncytia,200 µM
CCCCCCCCNc1ccc(C2NC(=O)NC(CC)=C2C(=O)OCC2CCCCC2)cc1,,,p24 / ELISA,>5 µM
O=C(N[C@@H](Cc1ccccc1)[C@H](O)CN(CC1CCCC1)S(=O)(=O)c1ccc(Cl)c(Cl)c1)O[C@@H]1CCOC1,IIIB,,p24,<0.101 µM
CC(C)CN(C[C@H](O)C[C@@H](CNC(C)(C)C)Cc1ccccc1)S(=O)(=O)c1ccccc1,IIIB,,p24,<1 µM
CCc1c(Sc2cc(C)cc(C)c2)n(COCCO)c(=O)[nH]c1=O,IIIB (TIBO 82150) (RT-L100I),RT-L100I,syncytia,0.02 µM
Cc1sccc1C(=S)Nc1ccc(Cl)c(OCC=C(Cl)Cl)c1,TIBO R82913-resistant (RT K103N),RT-K103N,syncytia,0.4 µg/mL
CCC1=C(c2nc(C3CCCCC3)cs2)C(c2cccc(C#N)c2)NC(=O)N1,,,p24 / ELISA,1–5 µM
O=C(NC1(C(=O)O)CCCC1)c1ccccc1SSc1ccccc1C(=O)NC1(C(=O)O)CCCC1,IIIB,,cytopathic effect / XTT,>16 µM
O=C(c1cccc(F)c1)c1ccc2c(c1)sc(=O)n2Cc1ccccc1,IIIB,,syncytia,>1.6 µg/mL
CCC1=C(c2nc(C3CCCCC3)cs2)C(c2ccc3ccccc3c2Br)NC(=O)N1,,,p24 / ELISA,1–5 µM
C[C@H](NP(=O)(OC[C@@H]1C=C[C@H](n2ccc(=O)[nH]c2=O)O1)Oc1ccccc1)C(=O)OCc1ccccc1,,,syncytia,>50 µM
CC(C)(C)OC(=O)[C@H](CCC(N)=O)NC(=O)c1ccccc1SSc1ccccc1C(=O)N[C@@H](CCC(N)=O)C(=O)OC(C)(C)C,IIIB,,cytopathic effect / XTT,3.3 µM
CC(C)CN(C[C@@H](O)[C@H](Cc1ccccc1)NC(=O)O[C@H]1CCOC1)S(=O)(=O)N1CCCCC1,IIIB,,p24,<0.101 µM
CCc1c(Sc2ccccc2)n(COCc2ccccc2)c(=O)[nH]c1=O,IIIB,RT-Y181C,syncytia,0.41 µM
C#CCO/N=C/c1cc(NC(=S)c2ccoc2C)ccc1Cl,IIIB,,syncytia,0.047 µM

Repeating the final 8 entries:

SMILES	strain	mutations	read by	result
O=C(NC1(C(=O)O)CCCC1)c1ccccc1SSc1ccccc1C(=O)NC1(C(=O)O)CCCC1	IIIB		cytopathic effect / XTT	>16 µM
O=C(c1cccc(F)c1)c1ccc2c(c1)sc(=O)n2Cc1ccccc1	IIIB		syncytia	>1.6 µg/mL
CCC1=C(c2nc(C3CCCCC3)cs2)C(c2ccc3ccccc3c2Br)NC(=O)N1			p24 / ELISA	1–5 µM
C[C@H](NP(=O)(OC[C@@H]1C=C[C@H](n2ccc(=O)[nH]c2=O)O1)Oc1ccccc1)C(=O)OCc1ccccc1			syncytia	>50 µM
CC(C)(C)OC(=O)[C@H](CCC(N)=O)NC(=O)c1ccccc1SSc1ccccc1C(=O)N[C@@H](CCC(N)=O)C(=O)OC(C)(C)C	IIIB		cytopathic effect / XTT	3.3 µM
CC(C)CN(C[C@@H](O)[C@H](Cc1ccccc1)NC(=O)O[C@H]1CCOC1)S(=O)(=O)N1CCCCC1	IIIB		p24	<0.101 µM
CCc1c(Sc2ccccc2)n(COCc2ccccc2)c(=O)[nH]c1=O	IIIB	RT-Y181C	syncytia	0.41 µM
C#CCO/N=C/c1cc(NC(=S)c2ccoc2C)ccc1Cl	IIIB		syncytia	0.047 µM